Test results taken from patent US20050282239A1, “Cell-permeable enzyme activation reporter that can be loaded in a high throughput and gentle manner” (priority 2003, published 2005).
Ends that are not written are not given here.

Columns and labels:
Test in all cases: CACE single-cell analysis: loading and release of cargo
[1] = tested on: HT1080/PTEN cells; assay type: cell-based, human; conditions: 1 μM extracellular
[2] = tested on: RBL cells; assay type: cell-based, rat; conditions: all cells
[3] = tested on: HT1080 cells; assay type: cell-based, human

Sequence | peaks on electrophoretic trace ([1]; DTT added before lysis and to electrophoretic buffer) | cells with a single peak (F-PKB-C) ([1]; n=19) | cells with multiple peaks ([1]; n=19) | peaks on electrophoretic trace ([2]; 750 nM extracellular, n=3) | peaks on electrophoretic trace ([2]; 3 μM extracellular, n=4) | cells with only non-phosphorylated and phosphorylated F-PKB-C peaks ([3]; 215 nM extracellular, n=6) | cells with only two peaks (non-phosphorylated and phosphorylated F-PKB-C) ([3]; 1 μM extracellular, n=15) | electrophoretic traces with multiple peaks other than non-phosphorylated and phosphorylated F-PKB-C ([3]; 1 μM extracellular, n=85) | peaks on electrophoretic trace ([1]; UVA 10 s, all cells, n=6, migration time of F-PKB standard)
GRPRAATFAEGCRKKRRQRRR [F-PKB-C-SS-TAT, F-PKB-C conjugated to TAT(49-57) via a disulfide bond] | a single peak | 30% | 70% | no additional peaks | multitude of peaks | 67% | 15% | 85% | –
GRPRAATFAEGRKKRRQRRR [F-PKB-PLL-TAT, fluorescein-PKB substrate-photolabile linker-TAT(49-57)] | – | – | – | – | – | – | – | – | a single peak
